Test results published in patent US9156872B2, “2′-azido substituted nucleoside derivatives and methods of use thereof for the treatment of viral diseases” (priority 2011, dated 2015).

The chains behind the UniProt entries cited, without tags or fusion partners. Where a name states a change or a piece, a line headed by the entry shows the natural chain unless it says otherwise. Residues count along the entry.
UniProt P26663, 2420-2955 limits assumed, stated change not applied: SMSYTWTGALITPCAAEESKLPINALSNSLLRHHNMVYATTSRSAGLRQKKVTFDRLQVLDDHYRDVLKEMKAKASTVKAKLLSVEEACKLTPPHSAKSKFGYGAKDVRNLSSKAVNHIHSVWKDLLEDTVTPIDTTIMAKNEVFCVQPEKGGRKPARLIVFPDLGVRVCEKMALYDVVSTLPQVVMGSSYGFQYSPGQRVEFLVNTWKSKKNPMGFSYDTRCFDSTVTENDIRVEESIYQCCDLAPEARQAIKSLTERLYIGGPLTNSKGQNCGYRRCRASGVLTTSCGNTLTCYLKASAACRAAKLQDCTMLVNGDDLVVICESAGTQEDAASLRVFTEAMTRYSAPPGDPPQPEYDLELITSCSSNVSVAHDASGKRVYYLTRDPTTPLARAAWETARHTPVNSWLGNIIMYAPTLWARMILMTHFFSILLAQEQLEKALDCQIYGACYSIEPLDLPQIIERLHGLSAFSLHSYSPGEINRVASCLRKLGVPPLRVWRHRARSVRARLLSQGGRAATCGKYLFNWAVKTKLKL

Each molecule was assayed against HCV NS5B RNA-dependent RNA polymerase (1b-BKΔ55) (Hepatitis C virus genotype 1b, UniProt P26663). Settings: read-out: NTP Ki; nucleoside triphosphate analog; Ki from NS5B IC50 by Cheng-Prusoff.

Structure (SMILES)	Ki [µM]
CCOC(=O)[C@H](C)NP(=O)(OC[C@H]1O[C@@H](n2cnc3c(OC)nc(N)nc32)[C@](C)(N=[N+]=[N-])[C@@H]1O)Oc1ccccc1 (stereo partly shown)	0.03
CC(C)OC(=O)[C@H](C)NP(=O)(OC[C@H]1O[C@@H](n2ccc(=O)[nH]c2=O)[C@](C)(F)[C@@H]1O)Oc1ccccc1 (stereo partly shown)	1.5
CC(C)OP1(=O)OC[C@H]2O[C@@H](n3ccc(=O)[nH]c3=O)[C@](C)(N=[N+]=[N-])[C@@H]2O1 (stereo partly shown)	9
CC(C)OC(=O)[C@H](C)NP(=O)(OC[C@H]1O[C@@H](n2ccc(N)nc2=O)[C@](C)(N=[N+]=[N-])[C@@H]1O)Oc1ccccc1 (stereo partly shown) [Compound 22]	0.3
